# Measured values reported in ChEMBL document CHEMBL2417542 (Bioorg Med Chem Lett, 2013).
# System: MT2
# Assay: Cytotoxicity against human MT2 cells assessed as growth inhibition
# Assay type: cell-based
row,SMILES,CC50
1,Cc1cc(C)c(Nc2nc(Nc3ccc(C#N)cc3)nc(OCCC3CCNCC3)n2)c(C)c1,4.2 µM
2,CCc1cc(F)c(Nc2nc(Nc3ccc(C#N)cc3)nc(OCCCN3CCOCC3)n2)c(F)c1,13 µM
3,CC(C)c1cc(F)c(Nc2nc(Nc3ccc(C#N)cc3)nc(OCCCN3CCOCC3)n2)c(F)c1,1.5 µM
4,Cc1cc(C)c(Nc2nc(Nc3ccc(C#N)cc3)nc(OCCN3CCOCC3)n2)c(C)c1,95 µM
5,N#Cc1ccc(Nc2nc(Nc3c(F)cc(C4CC4)cc3F)nc(OCCCN3CCOCC3)n2)cc1,2.2 µM
6,Cc1cc(C)c(Nc2cc(OCCCN3CCOCC3)nc(Nc3ccc(C#N)cc3)n2)c(C)c1,3.1 µM
7,Cc1cc(/C=C/C#N)cc(C)c1Nc1nc(Nc2ccc(C#N)cc2)nc(OCCCN2CCOCC2)n1,4.5 µM
